A mixed list of measured activities; the numbers were collected in NIAID ChemDB.

Common to all: whole-cell or culture tests; species: HIV-1; cell line: MT-4; read-out: EC50

ECn is the concentration giving n% inhibition of infection, replication or growth. Blank or dashed fields: not listed here. Lines come from different laboratories, so protocols vary.

smiles | strain or isolate | changes | method | value
C[C@]12CCC3C(CC=C4CC(O)CC[C@@]43C)C1CCC2C(/C=C/c1ccc(Br)cc1)=N/O | IIIB |  | MTT | >10.28 µM
Cn1c2ccccc2c2c1cc(C#N)c(=O)n2-c1ccc([N+](=O)[O-])cc1 |  |  | reporter gene | 0.03 µM
COC(=O)/C=C1\S/C(=N/N=C/c2ccc(N(C)C)cc2)NC1=O | IIIB |  | cytopathic effect / MTT | >87.25 µM
O=C1C=CN(COCc2ccccc2)S(=O)(=O)N1COCc1ccccc1 |  |  | cytopathic effect / MTT | >400 µg/mL
Cc1cc(/C=C/C#N)cc(C)c1Oc1nc(NC2CCN(Cc3cccc(C#N)c3)CC2)nc2ccsc12 | IIIB | NNRTI-resistant (RT Y188L) | MTT | 0.051 µM
CCn1c(C)c(C(=O)OC)c(C(=O)OC)c1Cc1ccccc1 | IIIB |  | cytopathic effect / MTT | 3.2 µM
COc1ccc(CSc2nc(C(=O)c3ccc(Cl)cc3)c(C)c(=O)[nH]2)cc1 | IIIB |  | MTT | 7.21 µM
O=C(O)c1cc(NS(=O)(=O)c2ccc(-c3ccc(S(=O)(=O)Nc4cc(C(=O)O)c(O)c(S(=O)(=O)O)c4)cc3)cc2)cc(S(=O)(=O)O)c1O | IIIB |  | syncytia | <99 µM
Cn1c2ccccc2c(=O)c2c(O)cccc21 | IIIB |  | MTT | >15 µg/mL
COc1cc2c(c(O)c1OC)-c1c(cc3c(c1O)OCO3)C[C@H](C)[C@H](C)C2 | IIIB |  |  | 5.67 µg/mL
C/C1=C\[C@@H](C)C/C=C/[C@H]2[C@H](O)[C@@]3(C)O[C@@]4(Cc5c[nH]c6ccccc56)NC(=O)[C@]2(c2ccc([nH]2)C1=O)C4[C@@H]3C | LAI |  | p24 / ELISA / antigen | 0.55 µM
COc1ccc(CSc2nc(C(=O)c3ccc(Br)cc3)c(C)c(=O)[nH]2)cc1 | IIIB | K103N/Y181C | MTT | >201 µM
O=c1nc(N=CN2CCCC2)ccn1[C@H]1C[C@H](CO)[C@@H](CO)O1 | TIBO-resistant |  | XTT | 6.8 µM
CC1(C)Oc2ccc3ccc(=O)oc3c2[C@@H](OC(=O)C23CCC(C)(C(=O)O2)C3(C)C)[C@H]1OC(=O)C12CCC(C)(C(=O)O1)C2(C)C | NL4-3 |  | p24 | 0.1 µM
Cc1cc(/C=C/C#N)cc(C)c1Oc1nc(NC2CCN(Cc3ccc([N+](=O)[O-])cc3)CC2)nc2ccsc12 | RES056 |  | MTT | 0.111 µM
CC(=O)OCCOCN1C=CC(N)=NS1(=O)=O |  |  | cytopathic effect / MTT | >400 µg/mL
O=S(=O)(c1cccc2cnccc12)N1CCNCC1 | IIIB |  | cytopathic effect / MTT | >14.8 µg/mL
CC(=O)N1N=C(C2CCC3C4CC=C5C[C@@H](O)CC[C@]5(C)C4CC[C@]23C)CC1c1ccc(Br)cc1 | IIIB |  | MTT | >0.29 µM
Cc1cc(/C=C/C#N)cc(C)c1-c1cccc2cnc(Nc3ccc(C#N)cn3)cc12 | HXB2 | K103N | cytopathic effect / luminescence | 0.047 µM
CC1=C[C@@H]2/C=C/C[C@H](C)/C=C(\C)C(=O)c3ccc([nH]3)[C@]23C(=O)N[C@@H](Cc2c[nH]c4ccccc24)C3[C@@H]1C | LAI |  | p24 / ELISA / antigen | 1.23 µM
NC1=NS(=O)(=O)N(COCc2ccccc2)C=C1 |  |  | cytopathic effect / MTT | >400 µg/mL
COC(=O)/C=C1\S/C(=N/N=C/c2ccc(OC)cc2)NC1=O | IIIB |  | cytopathic effect / MTT | >72.1 µM
Cc1cc(C#N)cc(C)c1Oc1nc(Nc2ccc(B3OC(C)(C)C(C)(C)O3)cc2)nc2c1COC2 |  | Y188L | MTT | 1.61 µM
Cc1ccc(S(=O)(=O)c2c(C(N)=O)[nH]c3ccc(Cl)cc23)c(C)c1 | N119 nevirapine-resistant (RT Y181C) | RT-Y181C | cytopathic effect / MTT | 0.15 µM
COc1ccc(CSc2nc(C(=O)c3cccc(F)c3)c(C)c(=O)[nH]2)cc1 | IIIB |  | MTT | >325 µM
C#CCOCN1C=CC(=O)NS1(=O)=O |  |  | cytopathic effect / MTT | >400 µg/mL
O=c1nc(N=CN2CCCCC2)ccn1[C@H]1C[C@H](CO)[C@@H](CO)O1 | IIIB |  | XTT | 12.8 µM
Cc1cc(C#N)cc(C)c1Oc1nc(NC2CCC(NCc3ccccc3)CC2)nc2ccsc12 | IIIB | NNRTI-resistant (RT E138K) | MTT | 0.891 µM
N#CC1=CN(COCc2ccccc2)S(=O)(=O)N=C1N |  |  | cytopathic effect / MTT | >400 µg/mL
C[C@]12CCC3C(CC=C4C[C@@H](O)CC[C@@]43C)C1CCC2C(=O)/C=C/c1ccc(C(F)(F)F)cc1 | IIIB |  | MTT | >55.38 µM
O=C1C=CN(COCc2ccccc2)S(=O)(=O)N1 |  |  | cytopathic effect / MTT | >400 µg/mL
COC(=O)/C=C1\S/C(=N/N=C/c2ccc(Cl)cc2)NC1=O | IIIB |  | cytopathic effect / MTT | >4.23 µM
Cc1cc(/C=C/C#N)cc(C)c1Oc1nc(NC2CCN(Cc3ccccn3)CC2)nc2ccsc12 | IIIB | NNRTI-resistant (RT F227L V106A) | MTT | 0.0267 µM
C[C@H]1C/C=C/[C@H]2[C@@H]3O[C@]3(C)[C@@H](C)C3[C@H](Cc4c[nH]c5ccccc45)NC(=O)[C@]32c2ccc([nH]2)C(=O)[C@H](C)C1 | LAI |  | p24 / ELISA / antigen | 0.68 µM
CC1CCNC2CCCCC2NC(C)CCNC2CCCCC2N1 | IIIB |  | MTT | 10.51 µM
C#CCOCN1C(=O)C=C(C)N(COCC#C)S1(=O)=O |  |  | cytopathic effect / MTT | >400 µg/mL
COC(=O)/C=C1\S/C(=N/N=C/c2ccc(OCc3ccccc3)cc2)NC1=O | IIIB |  | cytopathic effect / MTT | >97.45 µM
Cc1cc(/C=C/C#N)cc(C)c1Oc1nc(NC2CCN(Cc3ccc(F)cc3)CC2)nc2ccsc12 | IIIB | NNRTI-resistant (RT E138K) | MTT | 0.0349 µM
C#CCOCN1C=C(C#N)C(N)=NS1(=O)=O |  |  | cytopathic effect / MTT | >400 µg/mL

A second listing of 2 rows from above:

C[C@]12CCC3C(CC=C4C[C@@H](O)CC[C@@]43C)C1CCC2C(=O)/C=C/c1ccc(C(F)(F)F)cc1 ; strain or isolate: IIIB ; method: MTT ; value: >55.38 µM
Cc1cc(/C=C/C#N)cc(C)c1Oc1nc(NC2CCN(Cc3ccc([N+](=O)[O-])cc3)CC2)nc2ccsc12 ; strain or isolate: RES056 ; method: MTT ; value: 0.111 µM